This passage reports FRET efficiency E, decrease of donor lifetime (delta t = tauD - tauDA) and mean CFP donor lifetime with acceptor (tau) results from paper PMC2987829, “Autoacetylation of the Ralstonia solanacearum Effector PopP2 Targets a Lysine Residue Essential for RRS1-R-Mediated Immunity in Arabidopsis” (2010).

In the assay the target is RRS1-S-YFPv (Arabidopsis thaliana (Col-0 accession)). The assay is described as follows: FRET or BRET.

In the case of “PopP2-CFP (from UniProt Q8Y125 1-488) (natural protein)”, the FRET efficiency E came out at 21%, the decrease of donor lifetime (delta t = tauD - tauDA) stood at 497 ps and the mean CFP donor lifetime with acceptor (tau) was found to be 1.89 ns.
